Compound potency records, mixed from different reports. Data source: NIAID ChemDB in PubChem.

All rows: tests in culture; organism: HIV-1; cells: MT-2; measure: EC50

Neighbouring rows are from separate reports. An empty or dashed field is not shown. ECn: concentration that inhibits the pathogen or its effect by n%.

structure,strain,changes,read by,value
Nc1nc(NC2CC2)c2ncn([C@H]3C=C[C@@H](CO)C3)c2n1,Site-directed mutant,RT-K65R H221Y,cytopathic effect / XTT,2.15 µM
O=c1[nH]cnc2c1ncn2[C@H]1CC[C@@H](CO)O1,NL4-3 Recombinant,,cytopathic effect / XTT,8 µM
N/C(=N/O)c1cccc(CN2C(=O)N(Cc3cccc(/C(N)=N\O)c3)[C@H](Cc3ccc(F)c(F)c3)[C@H](O)[C@H]2CCc2ccc(F)c(F)c2)c1,RF,,cytopathic effect / MTT,<0.117 µM
Cc1cn([C@H]2C[C@H](N=[N+]=[N-])[C@@H](CO)O2)c(=O)[nH]c1=O,NL4-3,RT-I178L,p24,0.004 µM
O=C1N(Cc2cccc(O)c2)[C@H](CCc2ccccc2)[C@@H](O)[C@@H](Cc2ccccc2)N1Cc1cccc(O)c1,RF,,cytopathic effect / MTT,<0.115 µM
C[C@H](Cn1cnc2c(N)ncnc21)OCP(=O)(O)O,G910-6 AZT-resistant (RT D67N K70R T215F K219Q),RT-D67N K70R T215F K219Q,p24,0.6 µM
Nc1nc(NC2CC2)c2ncn([C@H]3C=C[C@@H](CO)C3)c2n1,HXB2,,cytopathic effect / XTT,1.1 µM
Cc1cn([C@H]2C=C[C@@H](CO)O2)c(=O)[nH]c1=O,Clinical isolate,K65R M184V,recombinant virus assay,0.576 µM
Cc1cn([C@H]2C[C@H](N=[N+]=[N-])[C@@H](CO)O2)c(=O)[nH]c1=O,HXB2D,,p24,0.016 µM
Cc1ccc(S(=O)(=O)N(CC(C)C)C[C@@H](O)[C@H](Cc2ccccc2)NC(=O)O[C@H]2CO[C@H]3OCC[C@H]32)cc1,IIIB,ATV-P36 atazanavir-resistant mutant,ATP,0.0019 µM
Nc1ccn([C@H]2CC[C@@H](CO)O2)c(=O)n1,P119S(RT-P119S),RT-P119S,p24,0.36 µM
Cc1cn([C@H]2C[C@H](N=[N+]=[N-])[C@@H](CO)O2)c(=O)[nH]c1=O,Site-directed mutant,RT-L74V,cytopathic effect / XTT,0.7 µM
Cc1cn([C@H]2C[C@H](N=[N+]=[N-])[C@@H](CO)O2)c(=O)[nH]c1=O,IIIB,K112M K113E V128I M200I H219P,p24 / ELISA,0.153 µM
O=c1[nH]cnc2c1ncn2[C@H]1CC[C@@H](CO)O1,RT P119S L214F,RT-P119S L214F,p24,1.5 µM
NC(=O)c1cccc(CN2C(=O)N(Cc3cccc(C(N)=O)c3)[C@H](Cc3ccccc3)[C@H](O)[C@H]2CCc2ccccc2)c1,RF,,cytopathic effect / MTT,<0.035 µM
Cc1cn([C@H]2C[C@H](N=[N+]=[N-])[C@@H](CO)O2)c(=O)[nH]c1=O,Site-directed mutant,RT-K65R Y115F M184V,cytopathic effect / XTT,0.196 µM
Nc1cccc(CN2C(=O)N(Cc3ccc4[nH]ncc4c3)[C@H](Cc3ccccc3)[C@H](O)[C@H]2CCc2ccccc2)c1,RF,,cytopathic effect / MTT,<0.013 µM
Nc1ncnc2c1ncn2CCOCP(=O)(O)O,L214F(RT-L214F),RT-L214F,p24,0.92 µM
Nc1nc2c(ncn2[C@H]2CO[C@@H](CO)O2)c(=O)[nH]1,,RT-K65R,,0.91 µM
CC(C)(C)OC(=O)N[C@@H](Cc1ccccc1)[C@H](O)CNC[C@@H](O)[C@H](Cc1ccc(OCC(=O)N2CCOCC2)cc1)NC(=O)OC(C)(C)C,RF,PR-G48V A71T V82A,,3.72 µM
Nc1nc(=O)n([C@@H]2CS[C@H](CO)O2)cc1F,Clinical isolate,M41L/D67N/K70R/A98G/K101E/M184V/G190A/L210W/T215Y/K219E,recombinant virus assay,>13.3 µM
O=c1[nH]cnc2c1ncn2[C@H]1CC[C@@H](CO)O1,RT-T69G K103N,1(T69G+K103N),p24,0.633 µM
COC(=O)N[C@H](C(=O)N[C@@H](Cc1ccccc1)[C@@H](O)CN(Cc1ccc(-c2ccccn2)cc1)NC(=O)[C@@H](NC(=O)OC)C(C)(C)C)C(C)(C)C,IIIB,K112M K113E V128I M200I H219P I401T R409K D437N L441P R41K,p24 / ELISA,0.0043 µM
Nc1nc(NC2CC2)c2ncn([C@H]3C=C[C@@H](CO)C3)c2n1,,RT-T69G,p24,0.13 µM
Nc1nc2c(ncn2[C@H]2CO[C@@H](CO)O2)c(=O)[nH]1,Site-directed mutant,RT-K65R Q151M,cytopathic effect / XTT,>44 µM

The last 2 rows once more:

structure | strain | changes | read by | value
Nc1nc(NC2CC2)c2ncn([C@H]3C=C[C@@H](CO)C3)c2n1 |  | RT-T69G | p24 | 0.13 µM
Nc1nc2c(ncn2[C@H]2CO[C@@H](CO)O2)c(=O)[nH]1 | Site-directed mutant | RT-K65R Q151M | cytopathic effect / XTT | >44 µM